Measured values from several laboratories, pooled; numbers as filed in NIAID ChemDB.

All rows: whole-cell or culture tests; species: Hepatitis B virus; read by: PCR; read-out: EC50

Lines come from different laboratories, so protocols vary. ECn is the concentration giving n% inhibition of infection, replication or growth. a–b is a range or a potency band. An empty or dashed field is not shown.

smiles,setting,cell line,value
Cn1nc2cc(C(=O)NCCOCCO)ccc2c1C(=O)Nc1ccc(F)c(Cl)c1,-,HepAD38,100–1000 µM
CCOC(=O)C1=C(CN2CC(F)(F)[C@@H]3[C@H]2CON3CC[C@](C)(O)C(=O)O)NC(c2nccs2)=N[C@H]1c1ccc(F)c(F)c1Cl,-,HepG2.2.15,0.073 µM
Cc1cnn2c3c(c(=O)n(-c4ccccc4)c12)CCN(C(=O)c1ccc(Br)c(Cl)c1)C3,3 d,HepG2.117,0.1–0.5 µM
CCn1cc(S(=O)(=O)N[C@@H]2CCCN(C(=O)C(N)=O)C2)c(F)c1C(=O)Nc1ccc(F)c(F)c1,-,HepAD38 cells,<0.1 µM
Cn1nc2cc(NS(=O)(=O)c3cn[nH]c3)ccc2c1C(=O)Nc1ccc(F)c(Cl)c1,-,HepAD38,100–1000 µM
O=C(NCc1ccccc1-c1ncco1)c1c2n(c(=O)n1-c1ccc(OC3CC3)cc1)CCN(C(=O)c1ccc(Br)c(Cl)c1)C2,-,HepG2.117,<0.1 µM
CCNC(=O)c1ccc(-n2c(=O)c3c(n4ncc(Cc5ccccc5)c24)CN(C(=O)c2ccc(Br)c(Cl)c2)CC3)cc1,3 d,HepG2.117,0.5–5 µM
COc1ccc(-n2c(C(=O)N[C@@H](C)C3CC3)c3n(c2=O)CCN(C(=O)c2ccc(Cl)c(Cl)c2)C3)cc1,-,HepG2.117,>5 µM
Cn1cc(S(=O)(=O)Nc2cc3nn(C)c(C(=O)Nc4ccc(F)c(Cl)c4)c3cc2F)cn1,-,HepAD38,>1000 µM
C[C@@H](NC(=O)c1c2n(c(=O)n1-c1ccc(OC3CCC3)cc1)CCN(C(=O)c1ccc(Br)c(Cl)c1)C2)c1ccccc1,-,HepG2.117,0.1–0.5 µM
COC(=O)C1=C(CN2CC(F)(F)[C@@H]3[C@H]2CON3C[C@@H](OC)C(C)(C)C(=O)O)NC(c2nccs2)=N[C@H]1c1ccc(F)c(F)c1F,-,HepG2.2.15,0.011 µM
C[C@@H]1CS(=O)(=O)[C@H](c2cccs2)CN1C(=O)Nc1ccc(F)c(Cl)c1,-,HepG2.117,0.5–5 µM
C=CCn1cc(S(=O)(=O)N[C@@H]2CCN(C(=O)C(=O)NC)C2)c(F)c1C(=O)Nc1ccc(F)c(F)c1,-,HepAD38 cells,<0.1 µM
CCOC(=O)C1=C(CN2CC(F)(F)[C@@H]3[C@H]2CON3C[C@H](O)[C@@H](CC)C(=O)O)NC(c2nccs2)=N[C@H]1c1cccc(F)c1C,-,HepG2.2.15,0.051 µM
CSc1ccc(-n2c(C(=O)NCc3ccccc3)c3n(c2=O)CCN(C(=O)c2ccc(Br)c(Cl)c2)C3)cc1,-,HepG2.117,0.1–0.5 µM
CCOC(=O)C1=C(CN2CC(F)(F)[C@@H]3[C@H]2CON3CC[C@](C)(O)C(=O)O)NC(c2nccs2)=N[C@H]1c1cccc(F)c1C,-,HepG2.2.15,>0.625 µM
NC(=O)COc1ccc(CNC(=O)c2c3n(c(=O)n2-c2ccc(OCC(F)(F)F)cc2)CCN(C(=O)c2ccc(Br)c(Cl)c2)C3)c(-n2cccn2)c1,-,HepG2.117,0.5–5 µM
CCOC(=O)C1=C(CN2CC(F)(F)[C@H]3[C@@H]2CON3C[C@H](O)C(C)(C)C(=O)O)NC(c2nc(C)cs2)=N[C@H]1c1cccc(F)c1C,-,HepG2.2.15,0.0125 µM
Cc1nn(C)cc1S(=O)(=O)Nc1ccc2c(C(=O)Nc3ccc(F)c(Cl)c3)n(C)nc2c1,-,HepAD38,100–1000 µM
C[C@]1(C(=O)NCc2ccccc2)CN(C(=O)c2ccc(Br)c(Cl)c2)CCS1(=O)=O,-,HepG2.117,0.5–5 µM
C[C@@H](c1ccccc1)N1C[C@@H](O)Cn2c(c3n(c2=O)CCN(C(=O)c2ccc(Br)c(Cl)c2)C3)C1=O,-,HepG2.117,0.5–5 µM
O=C(c1cccc(Cl)c1F)N1CCS(=O)(=O)[C@@H](c2cccs2)C1,-,HepG2.2.15,>5 µM
CCOC(=O)C1=C(CN2CC(F)(F)[C@H]3[C@@H]2CCN3C[C@@](C)(F)C(=O)O)NC(c2nc(C)cs2)=N[C@H]1c1cccc(F)c1C,-,HepG2.2.15,0.0035 µM
COc1ccc(-n2c(=O)c3c(n4ncc(Nc5ccccc5)c24)CN(C(=O)c2ccc(Br)c(Cl)c2)CC3)cc1,3 d,HepG2.117,<0.1 µM
Cn1nc2nc(NS(=O)(=O)C3CC3)ccc2c1C(=O)Nc1ccc(F)c(Cl)c1,-,HepAD38,>1000 µM
O=C1NCCCn2c1c1n(c2=O)CCN(C(=O)c2ccc(Br)c(Cl)c2)C1,-,HepG2.2.15,>5 µM
CCOC(=O)C1=C(CN2CC(F)(F)[C@@H]3[C@H]2CON3C[C@@H](F)C(C)(C)C(=O)O)NC(c2nccs2)=N[C@H]1c1cccc(F)c1C,-,HepG2.2.15,0.011 µM
CNC(=O)C(=O)N1CC[C@@H](NS(=O)(=O)c2cn(CC(F)F)c(C(=O)Nc3ccc(F)c(F)c3)c2F)C1,-,HepAD38 cells,<0.1 µM
COc1ccc(-n2c(C(=O)NCc3ccccc3)c3n(c2=O)CCN(C(=O)c2ccc(Br)c(Cl)c2)C3)cc1,-,HepG2.117,0.1–0.5 µM
Cn1nc2cc(NCS(=O)(=O)NCCOCCO)ccc2c1C(=O)Nc1ccc(F)c(Cl)c1,-,HepAD38,100–1000 µM
N#Cc1cc(C(=O)N2CCS(=O)(=O)[C@](F)(c3ncc(Cc4ccccc4-c4ncccn4)s3)C2)ccc1Br,-,HepG2.117,0.5–5 µM
C[C@H](NS(=O)(=O)Nc1ccc2c(C(=O)Nc3ccc(F)c(Cl)c3)n(C)nc2c1)c1ccccn1,-,HepAD38,100–1000 µM
CNC(=O)C(=O)N1CC2CC2(NS(=O)(=O)c2cn(C)c(C(=O)Nc3cc(F)c(F)c(F)c3)c2F)C1,-,HepAD38 cells,<0.1 µM
Cn1nc2cc(NCS(=O)(=O)C3CC3)ccc2c1C(=O)Nc1ccc(F)c(Cl)c1,-,HepAD38,100–1000 µM
O=C(c1ccc(Br)cc1)N1CCc2c(n3nccc3n(-c3ccccc3)c2=O)C1,3 d,HepG2.117,>5 µM
CCOC(=O)C1=C(CN2CC(F)(F)[C@@H]3[C@H]2CON3C[C@H](O)C(C)(C)C(=O)O)NC(c2nccs2)=N[C@@H]1c1ccc(Cl)c(F)c1,-,HepG2.2.15,0.039 µM
Cn1nc2cc(S(=O)(=O)NC3CN(C(=O)OC(C)(C)C)C3)ccc2c1C(=O)Nc1ccc(F)c(Cl)c1,-,HepAD38,100–1000 µM

Repeating the final 4 entries:

smiles,setting,cell line,value
Cn1nc2cc(NCS(=O)(=O)C3CC3)ccc2c1C(=O)Nc1ccc(F)c(Cl)c1,-,HepAD38,100–1000 µM
O=C(c1ccc(Br)cc1)N1CCc2c(n3nccc3n(-c3ccccc3)c2=O)C1,3 d,HepG2.117,>5 µM
CCOC(=O)C1=C(CN2CC(F)(F)[C@@H]3[C@H]2CON3C[C@H](O)C(C)(C)C(=O)O)NC(c2nccs2)=N[C@@H]1c1ccc(Cl)c(F)c1,-,HepG2.2.15,0.039 µM
Cn1nc2cc(S(=O)(=O)NC3CN(C(=O)OC(C)(C)C)C3)ccc2c1C(=O)Nc1ccc(F)c(Cl)c1,-,HepAD38,100–1000 µM